These results are taken from patent publication US7695930B2, “Method for the detection, identification and/or quantification of microoganisms with peptidase activity using phenoxazinone derivatives as enzyme substrates” (Biomerieux, priority 2003, dated 2010).

Common to all, as to test: Leucine-peptidase detection on agar medium (Example 11)
What all share (assay type): cell-based

One data set deals with Candida albicans. Conditions: 50 mg/l. On the procedure: (§1) The detection medium was prepared by mixing 1.4 g of biogelytone (bioMérieux), 0.84 g of meat extract (bioMérieux), 2.24 g of NaCl (Merck), 280 μl of a solution of IPTG (isopropylthio-β-D-galactopyranoside, BIOSYNTH) in water (concentration 10 g/l) and 4.2 g of European agar (bioMérieux).
(§2) The substrate of the invention obtained in Example 2, in which the amino acid is leucine (leucine-9-aminobenzo[a]phenoxazin-5-one or Leu-ABP), or else a substrate of the prior art, which is leucine-aminomethylcoumarin (Leu-AMC, BACHEM), was then added in the following way: 280 ml of osmosed water were added to the medium, and the mixture was melted in a waterbath at 100° C. The mixture was autoclaved for 15 min at 121° C. and cooled to 50° C. in a waterbath.
(§3) The medium was then poured into Petri dishes.
(§4) The coloration of these colonies, the diffusion, and also the intensity of this coloration were noted.
(§5) The results were expressed as intensity of coloration using an arbitrary scale ranging from 0 to 4 as a basis and also as diffusion also using an arbitrary scale ranging from 0 to 4 as a basis.

For another data set, the system named is Citrobacter freundii. As for the experimental part:
as §1, §2, §3, §4, §5

A further data set concerns Enterobacter cloaccae. On the procedure:
as §1, §2, §3, §4, §5

In a further data set the test system is Enterococcus faecalis. As for the experimental part: as §1, §2, §3, §4, §5
The test system of another data set is Escherichia coli. The note with it: 50 mg/l. As for the experimental part:
as §1, §2, §3, §4, §5

A further data set deals with Klebsellia pneumoniae. As for the experimental part:
as §1, §2, §3, §4, §5

Another data set relates to Pseudomonas aeruginosa. As for the experimental part: as §1, §2, §3, §4, §5
The subject of another data set is Serratia marcescens. On the procedure:
as §1, §2, §3, §4, §5

The next data set has as its system Staphylococcus aureus. The note with it: 50 mg/l. On the procedure: as §1, §2, §3, §4, §5

On to `Cc1cc(=O)oc2cc(NC(=O)[C@@H](N)CC(C)C)ccc12` [Leu-AMC, leucine-aminomethylcoumarin, reference compound], for which the “diffusion, scale 0 to 4” value in the data set on Candida albicans (24 h) worked out at 4; with Candida albicans (48 h), 4; in the data set on Citrobacter freundii (24 h, 50 mg/l) it was 4; in the data set with Citrobacter freundii (48 h, 50 mg/l), 4; in the data set with Enterobacter cloaccae (24 h, 50 mg/l), 4; with Enterobacter cloaccae (48 h, 50 mg/l), 4. The “diffusion, scale 0 to 4” value was found to be 4 in the data set on Enterococcus faecalis (24 h, 50 mg/l); 4 with Enterococcus faecalis (48 h, 50 mg/l); 4 in the data set with Escherichia coli (24 h); 4 with Escherichia coli (48 h); 4 in the data set with Klebsellia pneumoniae (24 h, 50 mg/l); 4 in the data set on Klebsellia pneumoniae (48 h, 50 mg/l). Moreover, the “diffusion, scale 0 to 4” value in the data set on Pseudomonas aeruginosa (24 h, 50 mg/l) is on record as 4; with Pseudomonas aeruginosa (48 h, 50 mg/l), 4; with Serratia marcescens (24 h, 50 mg/l) it was 4; with Serratia marcescens (48 h, 50 mg/l), 4; in the data set with Staphylococcus aureus (24 h) it was 4; in the data set with Staphylococcus aureus (48 h), 4.
Regarding “leucine-9-aminobenzo[a]phenoxazin-5-one [Leu-ABP]”, the “diffusion, scale 0 to 4” value in the data set on Citrobacter freundii (24 h, 25 mg/l) is 0.5; in the data set on Citrobacter freundii (24 h, 50 mg/l), 0.5; in the data set on Citrobacter freundii (48 h, 25 mg/l), 0.5; in the data set on Citrobacter freundii (48 h, 50 mg/l), 0.75; with Citrobacter freundii (48 h, 100 mg/l), 0.25; in the data set on Enterobacter cloaccae (24 h, 25 mg/l), 0.5. The “diffusion, scale 0 to 4” value in the data set with Enterobacter cloaccae (24 h, 50 mg/l) turned out to be 0.5; with Enterobacter cloaccae (48 h, 25 mg/l), 0.5; in the data set with Enterobacter cloaccae (48 h, 50 mg/l), 0.75; in the data set on Enterobacter cloaccae (48 h, 100 mg/l), 0.25; in the data set with Enterococcus faecalis (24 h, 25 mg/l) it was 0.25; with Enterococcus faecalis (24 h, 50 mg/l), 0.25. Moreover, the “diffusion, scale 0 to 4” value in the data set with Enterococcus faecalis (48 h, 25 mg/l) was 0.25; in the data set with Enterococcus faecalis (48 h, 50 mg/l) it was 0.25; in the data set on Enterococcus faecalis (48 h, 100 mg/l), 0.0; with Klebsellia pneumoniae (24 h, 25 mg/l), 0.25; in the data set on Klebsellia pneumoniae (24 h, 50 mg/l), 0.5; in the data set on Klebsellia pneumoniae (48 h, 25 mg/l) it was 0.25. Moreover, the “diffusion, scale 0 to 4” value is listed as 0.75 in the data set with Klebsellia pneumoniae (48 h, 50 mg/l); 0.0 in the data set with Klebsellia pneumoniae (48 h, 100 mg/l); 0.5 with Pseudomonas aeruginosa (48 h, 25 mg/l); 1 in the data set on Pseudomonas aeruginosa (48 h, 50 mg/l); 0.5 with Pseudomonas aeruginosa (48 h, 100 mg/l); 0.3 in the data set with Pseudomonas aeruginosa (48 h, 200 mg/l). Moreover, the “diffusion, scale 0 to 4” value in the data set on Serratia marcescens (48 h, 25 mg/l) was 0.5; with Serratia marcescens (48 h, 50 mg/l), 0.5; in the data set on Serratia marcescens (48 h, 100 mg/l) it was 0.0.
